The source of these data is the supplement of paper PMC9931576.

Human monoclonal antibodies against the spike receptor-binding domain (heavy:light variable regions). IC50 against pseudoviruses bearing the spike of naturally observed variants; lower = stronger; >10 µg/ml means not reached at the top dose. No active / inactive call. The stated detection limit is 0.0005 µg/ml; values near or below 0.001 µg/ml lie at the floor of the assay.

Sequences and labels used below:
B1: BD56-687 (protein)
chain 1: QVQLQESGPGLVKPSQTLSLTCSVSGGSISSGDFYWSWIRQPPGKGLEWIGYIYYTGITYYNASLKSRVTISVDTSKNQFSLKLNSVTAADTAVYSCARFIRSCSSGSCYAFDLWGQGTLVTVSS
chain 2: QSALTQPASVSGSPGQSITISCTGTSSDVGSYTFVSWYQQHPGKAPKLIIYEVSQRPSGISNRFSGSKSGNTASLTISGLHAEDEAYYYCCSYVGSTILFGGGTKLTVL
B2: BD56-684 (protein)
chain 1: HVQLQESGPGLMKPSETLSLTCTVSGGSISNYFWSWIRQPPGKGLEWIGYTDYRGSTNFNPSLKSRVTISVDTSKNQVSLKLRSVTAADTAVYYCARHFDWLLNDPDAFDVWGQGTLVTVSS
chain 2: EIVLTQSPGTLSLSPGERATLSCRASQSVSSSFLAWYQQKAGQAPRLIIYGAINRAAGIPDRFSGSGSGTDFTLTISRLEPEDFAVYYCQQYDKSPLTFGQGTKVEIK
B3: TAU-1115 (protein)
chain 1: EVQLVESGGGLVQPGGSLRLSCAASGFTFSNYVMSWVRQAPGKGLEWVSGISGSGGSTYYADSMKGRFTISRDNSKNTLYLQMNSLRAEDTAVYYCAKDLTRDYYDSSGYQTGAFDIWGQGTMVTVSS
chain 2: SYELNQPPSVSVAPGQTARITCGGNNIGSKSVHWYQQKPGQAPVLVVYDDSDRPSGIPERFSGSNSGNTATLTISRVEAGDEADYYCQVWGGVFGGGTKLTVL
B4: BD56-679 (protein)
chain 1: QVQLVQSGAEVKKPGSSVKVSCKASGGTLTNYAINWVRQAPGQGLEWMGGIIPMYGSRNYAQRFQGRFTTTADESTSTAYMELRSLRSEDSAIYYCARVGYDVLTGYLDYWGQGTLVTVSS
chain 2: LTQPPSVSVAPGQTASITCGGNDIGSKNVHWYQQKPGQAPVLVVYDDSDRPSGIPGRFSGSNSGNTATLTISRVEAGDEADYYCQVWDSTSDLLYVFGTGTKVIVL
B5: BD56-677 (protein)
chain 1: EVQLLESGGGLVQPGGSLRLSCAASGFTFSSFVMTWVRQAPGKGLEWVSAISGSGSAPYYADSVKGRFTISRDNSKNTLYLQMNTLRAEDTAVYHCAKAIQDPADYFDYWGQGTLVTVSS
chain 2: SYVLTQPPSVSVAPGKTARITCGGNEIGSKSVHWYQQKPGQAPVVVIYYDSDRPSGIPERFSGSNSGNTATLTISRVEAGDEGDYYCQVWDSRWVFGGGTKLTVL
B6: BD56-670 (protein)
chain 1: QVQLQESGPGLVKPSQTLSLTCTVSSGSISSGDVYWSWIRQHPGKGLEWIGYINYSGSTYYNPSLRSRVTISIDTSKSQFSLKLSSVTAADTAVYYCARDKAYTNYFDYWGQGALVTVSS
chain 2: SYVLTQPPSVSVAPGKTARISCGGDNIGSKNVHWYQQKPGQAPVLVVYDDSDRPSGIPERFSGSNSGNTATLTISRVEAGDEADYYCQVWDSNNDHSNWVFGGGTKLTVL
B7: BD56-678 (protein)
chain 1: QVQLVESGGGVVQPGTSLRLSCAASGFTFRYYGIHWVRQAPGKGLEWVAFIWYDGSNKYYADSVRGRFTISRDNSKNTLYLQMNSLRAEDTAFYYCAKGGDGSGEDDAFDIWGQGTMVTVSS
chain 2: QSVLTQPPSVSGAPGQRVTISCTGGSSNIGADYAVHWYQYLPGTAPKLLIYGNGERPSGVPDRFSGSKSGTSASLVITGLQAEDEADYYCQSYDGSLSGPWVFGGGTKLTVL

The first experiment addresses SARS-CoV-2 Omicron BA.1 spike pseudovirus. As to the kind of experiment: pseudovirus neutralization IC50; higher = weaker neutralization. The protocol: (§1)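 Single-round VSV luciferase pseudovirus mixed with antibody dilutions for 1 h and put on Huh-7 cells for about a day; IC50 from the dose curve.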
As for B1, the “pseudovirus neutralization IC50” value is above 10 µg/mL.

Take B2: the “pseudovirus neutralization IC50” value is 2.41 µg/mL.

As to B3, the “pseudovirus neutralization IC50” value was above 10 µg/mL.

As to B4, the “pseudovirus neutralization IC50” value came to 2.5 µg/mL.

Take B5: the “pseudovirus neutralization IC50” value is 3.95 µg/mL.

For B6, the “pseudovirus neutralization IC50” value was above 10 µg/mL.

Take B7: the “pseudovirus neutralization IC50” value was determined as 3.35 µg/mL.

The next experiment addresses SARS-CoV-2 Omicron BA.2 spike pseudovirus. The description is as above. The protocol:
as §1
As for B1, the “pseudovirus neutralization IC50” value was above 10 µg/mL.

Turning to B2, the “pseudovirus neutralization IC50” value came to 5.36 µg/mL.

Consider B3, for which the “pseudovirus neutralization IC50” value was above 10 µg/mL.

On to B4, for which the “pseudovirus neutralization IC50” value came to 6.17 µg/mL.

As to B5, the “pseudovirus neutralization IC50” value is 6.57 µg/mL.

Consider B6, for which the “pseudovirus neutralization IC50” value was above 10 µg/mL.

For B7, the “pseudovirus neutralization IC50” value was 2.79 µg/mL.

The next experiment addresses SARS-CoV-2 Omicron BA.2.75 spike pseudovirus. The description is as above. The protocol:
as §1
As to B1, the “pseudovirus neutralization IC50” value is above 10 µg/mL.

Consider B2, for which the “pseudovirus neutralization IC50” value stood at 4.96 µg/mL.

For B3, the “pseudovirus neutralization IC50” value was above 10 µg/mL.

For B4, the “pseudovirus neutralization IC50” value was 2.62 µg/mL.

Turning to B5, the “pseudovirus neutralization IC50” value was determined as 6.54 µg/mL.

With B6, the “pseudovirus neutralization IC50” value was above 10 µg/mL.

Take B7: the “pseudovirus neutralization IC50” value is 1.46 µg/mL.

Another experiment addresses SARS-CoV-2 Omicron BA.5 spike pseudovirus. The description is as above. How it is done:
as §1
On to B1, for which the “pseudovirus neutralization IC50” value is above 10 µg/mL.

Regarding B2, the “pseudovirus neutralization IC50” value came to 5 µg/mL.

As for B3, the “pseudovirus neutralization IC50” value was above 10 µg/mL.

In the case of B4, the “pseudovirus neutralization IC50” value was found to be 3 µg/mL.

Regarding B5, the “pseudovirus neutralization IC50” value came out at 4.72 µg/mL.

Consider B6, for which the “pseudovirus neutralization IC50” value is above 10 µg/mL.

In the case of B7, the “pseudovirus neutralization IC50” value was determined as 2.31 µg/mL.

The target of a further experiment is SARS-CoV-2 Omicron BQ.1.1 spike pseudovirus. The experiment is described as above. The protocol: as §1
On to B1, for which the “pseudovirus neutralization IC50” value was above 10 µg/mL.

Regarding B2, the “pseudovirus neutralization IC50” value is above 10 µg/mL.

Consider B3, for which the “pseudovirus neutralization IC50” value was above 10 µg/mL.

As to B4, the “pseudovirus neutralization IC50” value worked out at 6.56 µg/mL.

As for B5, the “pseudovirus neutralization IC50” value is above 10 µg/mL.

Regarding B6, the “pseudovirus neutralization IC50” value was above 10 µg/mL.

B7: the “pseudovirus neutralization IC50” value is above 10 µg/mL.

The target of a further experiment is SARS-CoV-2 Omicron XBB spike pseudovirus. The experiment is described as above. How it is done: as §1
B1: the “pseudovirus neutralization IC50” value is above 10 µg/mL.

In the case of B2, the “pseudovirus neutralization IC50” value is above 10 µg/mL.

In the case of B3, the “pseudovirus neutralization IC50” value is above 10 µg/mL.

Turning to B4, the “pseudovirus neutralization IC50” value was determined as 6.25 µg/mL.

For B5, the “pseudovirus neutralization IC50” value was above 10 µg/mL.

As for B6, the “pseudovirus neutralization IC50” value is above 10 µg/mL.

For the molecule B7, the “pseudovirus neutralization IC50” value was above 10 µg/mL.

The next experiment deals with SARS-CoV-2 early D614G spike pseudovirus. Described as above. The protocol:
as §1
For B1, the “pseudovirus neutralization IC50” value is above 10 µg/mL.

For the molecule B2, the “pseudovirus neutralization IC50” value stood at 5.68 µg/mL.

Turning to B3, the “pseudovirus neutralization IC50” value was above 10 µg/mL.

For the molecule B4, the “pseudovirus neutralization IC50” value was 2.69 µg/mL.

On to B5, for which the “pseudovirus neutralization IC50” value was above 10 µg/mL.

Consider B6, for which the “pseudovirus neutralization IC50” value is above 10 µg/mL.

Regarding B7, the “pseudovirus neutralization IC50” value worked out at 0.485 µg/mL.
